Data as given in PubChem BioAssay AID624099 (ICCB-Longwood, 2012)
This is a random part of about 21,000 reagents. Over the whole deposit, 497 (2.4%) got an active call. 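Higher z means weaker E2 silencing; only reporter increases were scored, and knock-downs that hurt cell survival may mask genuine repressor factors.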

Screen: 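Human genes that papillomavirus E2 requires to repress the HPV18 LCR promoter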 (primary screen)
Cells: human C33A cervical carcinoma cells (HPV-negative) stably expressing BPV1 E2 and an HPV18 LCR luciferase reporter
Knock-down reagent: siRNA pool against human genes, 40 nM
Time to read-out: 72 h
Read-out: 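HPV18 LCR reporter light per well, converted to plate-wise z-scores that exclude control wells, and averaged over triplicate plates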
Scale: mean z-score and z-score: higher = stronger reporter signal, weaker E2 silencing
Active means: 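Hit if mean z-score reaches 2 and two or more of three replicate z-scores also reach 2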

mean z-score	z-score, replicate A	z-score, replicate B	z-score, replicate C	call	gene knocked down
0.02	0.05	0	-0.01	inactive	SHANK2-AS3 (GeneID 220070)
0.45	0.61	0.18	0.56	inactive	LTB4R2 (GeneID 56413)
-0.5	-0.68	-0.24	-0.57	inactive	TRIM54 (GeneID 57159)
1.34	1.6	1.2	1.22	inactive	TADA3 (GeneID 10474)
-0.32	-0.2	-0.46	-0.31	inactive	RD3 (GeneID 343035)
0.54	0.85	0.46	0.31	inactive	LINC02656 (GeneID 399716)
0.13	0.14	0.16	0.07	inactive	SUSD5 (GeneID 26032)
1.28	1.11	1.45	1.28	inactive	PCOLCE2 (GeneID 26577)
0.93	1.39	0.81	0.57	inactive	DCAF16 (GeneID 54876)
-0.2	-0.38	-0.38	0.16	inactive	LINC02843 (GeneID 286238)
-1.4	-1.46	-1.15	-1.59	inactive	ISCU (GeneID 23479)
-0.98	-1.33	-0.97	-0.63	inactive	MLIP (GeneID 90523)
0.75	0.82	0.68	0.74	inactive	DNAL1 (GeneID 83544)
0.6	0.78	0.56	0.46	inactive	SCN1A (GeneID 6323)
1.29	1.58	1.09	1.2	inactive	ABCC10 (GeneID 89845)
-0.49	-0.33	-0.48	-0.65	inactive	RPGR (GeneID 6103)
0.36	0.55	0.18	0.34	inactive	SPRR2A (GeneID 6700)
-0.22	-0.2	-0.54	0.07	inactive	CTSH (GeneID 1512)
-1.12	-1.03	-1.29	-1.04	inactive	ERLIN2 (GeneID 11160)
-1.21	-1.09	-1.26	-1.29	inactive	TCF21 (GeneID 6943)
-0.77	-0.43	-0.86	-1.02	inactive	SHOC1 (GeneID 158401)
0.14	0.21	0.2	0.02	inactive	FRS3 (GeneID 10817)
-0.38	-0.35	-0.35	-0.43	inactive	AK3 (GeneID 50808)
-1.26	-1.23	-1.32	-1.24	inactive	TFAM (GeneID 7019)
-1.43	-2.07	-1.19	-1.03	inactive	PRAMEF18 (GeneID 391003)
1.53	1.6	1.47	1.52	inactive	AP1S3 (GeneID 130340)
-0.76	-0.72	-0.64	-0.92	inactive	BANK1 (GeneID 55024)
0.61	0.65	0.88	0.31	inactive	TMEM121B (GeneID 27439)
0.68	0.52	1.04	0.47	inactive	DEPDC1 (GeneID 55635)
-1.19	-1.17	-1.07	-1.33	inactive	SETMAR (GeneID 6419)
-0.03	-0.04	-0.15	0.1	inactive	GALNT1 (GeneID 2589)
-0.59	-0.71	-0.62	-0.45	inactive	RIPOR2 (GeneID 9750)
-0.26	0.11	-0.27	-0.62	inactive	PRO2964 (retired record) (GeneID 55415)
-0.1	-0.06	-0.11	-0.14	inactive	THAP7-AS1 (GeneID 439931)
0.04	0.03	0.15	-0.07	inactive	USP9X (GeneID 8239)
-0.04	0.1	-0.24	0.03	inactive	CLEC4M (GeneID 10332)
1.42	0.81	1.78	1.67	inactive	PLCL1 (GeneID 5334)
-0.74	-0.64	-0.64	-0.94	inactive	PISD (GeneID 23761)
0.39	0.14	0.38	0.65	inactive	BNC1 (GeneID 646)
0.17	0.02	0.2	0.3	inactive	H2BC17 (GeneID 8348)
-0.47	-0.73	-0.41	-0.29	inactive	LOC402709 (retired record) (GeneID 402709)
3.03	3.94	2.69	2.45	active	SPHK1 (GeneID 8877)
-0.34	0.08	-0.56	-0.54	inactive	RGS12 (GeneID 6002)
-0.47	-0.62	-0.22	-0.57	inactive	ZNF260 (GeneID 339324)
0.66	0.93	0.42	0.64	inactive	CD81 (GeneID 975)
-1.2	-1.18	-1.54	-0.88	inactive	MGMT (GeneID 4255)
-1.11	-0.89	-1.18	-1.25	inactive	SLC45A4 (GeneID 57210)
0.21	0.09	0.37	0.18	inactive	PHF24 (GeneID 23349)
0.48	0.69	0.77	-0.02	inactive	PSMA2 (GeneID 5683)
-0.97	-1.48	-0.6	-0.82	inactive	LOC392531 (retired record) (GeneID 392531)
-0.46	-0.39	-0.35	-0.64	inactive	ACBD3 (GeneID 64746)
0.12	0.12	0.01	0.23	inactive	THAP9 (GeneID 79725)
0.76	0.56	0.67	1.07	inactive	BICD2 (GeneID 23299)
-0.06	0.04	-0.17	-0.05	inactive	RALGPS2 (GeneID 55103)
1.22	0.82	1.33	1.53	inactive	C2orf42 (GeneID 54980)
0.19	0.23	0.02	0.33	inactive	UNCX (GeneID 340260)
0.51	0.54	0.51	0.49	inactive	LOC389067 (retired record) (GeneID 389067)
